Anti-infective test results gathered from many reports (values: NIAID ChemDB through PubChem).

Common to all: target-level tests; species: HIV-1; protein: Protease; read-out: IC50

ICn is the concentration giving n% inhibition. An empty or dashed field is not shown. Conditions beyond the fields shown may differ between rows.

COC(=O)[C@]12CCC(C)(C)CC1C1=CCC3[C@@]4(C)CC[C@H](NC(=O)CCCCC(=O)O)C(C)(C)C4CC[C@@]3(C)[C@]1(C)CC2 ; method: HPLC ; value: 3 µM
CC(=O)ONc1ccc(S(=O)(=O)N(Cc2ccccc2)C[C@@H](O)[C@H](Cc2ccccc2)NC(=O)[C@H](C(C)C)N2C(=O)c3ccccc3C2=O)cc1 ; value: 0.057 µM
CC(C)[C@H](NC(=O)[C@@H](C)O)C(=O)N[C@@H](Cc1ccccc1)[C@H](O)CNC[C@@H](O)[C@H](Cc1ccccc1)NC(=O)OC(C)(C)C ; method: HPLC ; conditions: pH 5.5 ; value: <10 µM
CC1(C)CC[C@]2(C(=O)O)CC[C@]3(C)C(=CC[C@@H]4[C@@]5(C)CC[C@H](OC(=O)CCCCC(=O)O)C(C)(C)[C@@H]5CC[C@]43C)[C@@H]2C1 ; method: HPLC ; value: 3 µM
CC(C)(C)NC(=O)[C@H]1Cc2ccccc2CN1C(=O)[C@@H](O)[C@H](Cc1ccccc1)NC(=O)[C@H](CC(N)=O)NC(=O)OCc1ccccc1 ; value: >0.05 µM
CSCC[C@H](NC(=O)CCCCCCCCCCCCCCC(=O)N[C@H](C(=O)N[C@@H](CC(C)C)C(=O)N[C@@H](Cc1ccccc1)C(N)=O)C(C)O)C(=O)N[C@@H](Cc1ccccc1)C(=O)O ; value: 2.2 µM
CC(=O)N(CCC(O)[C@H](Cc1ccccc1)NC(=O)c1cccc(O)c1C)[C@H](C(=O)NC(C)(C)C)c1ccccc1 ; value: 0.8 µM
CC(C)(CC(=O)O)CC(=O)N[C@@H](Cc1ccccc1)[C@H](O)C(=O)N1CSC[C@H]1C(=O)NC(C)(C)C ; value: ~5 µM
C[C@@H]1CC[C@]2(C(=O)O)CC[C@]3(C)C(=CCC4[C@@]5(C)CC[C@H](OC(=O)CCCC(=O)O)C(C)(C)C5CC[C@]43C)C2[C@H]1C ; method: HPLC ; value: 4 µM
CC(=O)N(CC[C@@H](O)[C@H](Cc1ccccc1)NC(=O)c1cccc(O)c1C)[C@@H](Cc1ccc(Cl)cc1)C(=O)NC(C)(C)C ; value: 2.5 µM
CC(C)C[C@H](NC[C@H](CC1CCCCC1)NC(=O)[C@@H](NC(=O)C1Cc2ccccc2CN1)C(C)C)C(=O)N[C@@H](CC(C)C)C(=O)N[C@@H](Cc1ccccc1)C(N)=O ; method: HPLC ; value: 0.08 µM
COC(=O)[C@H](Cc1ccccc1)NC(=O)[C@H](CCC(=O)OCC1CCCCC1)NC(=O)C[C@H](O)C(CC(C)C)NC(=O)[C@@H](NC(=O)[C@@H](N)Cc1c[nH]c2ccccc12)C(C)C ; method: HPLC ; value: 0.05 µM
CC1CCC2C(C)(C)C(O)CCC2(C)C12Cc1c(cc3c(c1O)CN(CCO)C3=O)O2 ; method: substrate cleavage / HPLC ; value: 115 µM
CC(C)C[C@@H](C(=O)N[C@@H](Cc1ccccc1)[C@H](O)CN(CC(C)C)S(=O)(=O)c1ccc(Br)cc1)N1C(=O)c2ccccc2C1=O ; value: 0.022 µM
CCOC(=O)[C@]12CCC(C)(C)CC1C1=CCC3[C@@]4(C)CC[C@H](OC(=O)CCCC(=O)O)[C@@](C)(COC(=O)CCCC(=O)O)C4CC[C@@]3(C)[C@]1(C)CC2 ; method: substrate cleavage / fluorescence ; value: 27.4 µM
CC(=O)N(CC[C@@H](O)[C@H](Cc1ccccc1)NC(=O)c1cccc(O)c1C)[C@@H](Cc1ccc2ccccc2c1)C(=O)NC(C)(C)C ; value: 1.5 µM
CC[C@@H](C)[C@H](NC(=O)[C@@H]1CCCN1C(=O)[C@@H](O)[C@H](CC1CCCCC1)NC(=O)[C@H](CC(N)=O)NC(=O)COc1cccc2ccccc12)C(=O)N[C@H](C(N)=O)C(C)C ; value: <5 µM
Nc1cccc(CN2C(=O)N(Cc3ccc4[nH]ncc4c3)N(C(=O)CCc3ccccc3)C[C@@H](O)[C@H]2Cc2ccccc2)c1 ; method: fluorescence ; conditions: pH 7.0 ; value: <0.0005 µM
CC(C)C[C@H](NC(=O)C[C@H](O)[C@H](Cc1ccccc1)NC(=O)[C@@H](NC(=O)C1Cc2ccccc2CN1)C(C)C)C(=O)N[C@@H](Cc1ccccc1)C(N)=O ; method: HPLC ; value: 0.025 µM
CC(=O)ONc1ccc(S(=O)(=O)N(CC(C)C)C[C@@H](O)[C@H](Cc2ccccc2)NC(=O)CCCN2C(=O)c3ccccc3C2=O)cc1 ; value: >0.1 µM
Cc1cn([C@@H]2C[C@@H](N=[N+]=[N-])[C@H](COC(=O)C(C)C(C)C(=O)N[C@@H](Cc3ccccc3)[C@H](O)C(=O)N3CSC(C)(C)[C@H]3C(=O)NC(C)(C)C)O2)c(=O)[nH]c1=O ; value: <5 µM
Cc1cccc(OCC(=O)N[C@@H](CC(N)=O)C(=O)N[C@@H](Cc2ccccc2)[C@H](O)C(=O)N2CSC(C)(C)[C@H]2C(=O)NC(C)(C)C)c1C ; value: <0.05 µM
CCOC(=O)[C@]12CCC(C)(C)CC1C1=CCC3[C@@]4(C)CCC(=O)[C@@](C)(COC(=O)CCCC(=O)O)C4CC[C@@]3(C)[C@]1(C)CC2 ; method: substrate cleavage / fluorescence ; value: 27.7 µM
O=C(N[C@H](Cc1ccc(O)c(-c2cc(C[C@@H](NC(=O)OCc3ccccc3)C(=O)O)ccc2O)c1)C(=O)O)OCc1ccccc1 ; value: 24 µM
CC(C)C[C@H](NC(=O)[C@H](Cc1ccc(O)cc1)NC(=O)CCCCCCCCCCCCCCC(=O)N[C@@H](CC(N)=O)C(=O)N[C@@H](Cc1ccccc1)C(=O)O)C(=O)N[C@@H](Cc1ccccc1)C(N)=O ; value: 2.73 µM
CC(C)C[C@H](NC(=O)[C@@H](NC(=O)[C@@H](N)Cc1c[nH]c2ccccc12)C(C)C)[C@@H](O)CC(=O)NC(Cc1ccccc1)c1ccccc1 ; method: HPLC ; value: 0.02 µM
CC(C)(C)OC(=O)N[C@@H](Cc1ccccc1)[C@H](O)CNC[C@@H](O)[C@H](Cc1ccccc1)NC(=O)OC1(C)CCCC1 ; method: HPLC ; conditions: pH 5.5 ; value: <10 µM
COc1cc(CN2C(=O)N(Cc3ccc(O)c(OC)c3)N(C(=O)CCCc3cccs3)C[C@@H](O)[C@H]2Cc2ccccc2)ccc1O ; method: fluorescence ; value: <0.0005 µM
CCOC(=O)[C@]12CCC(C)(C)CC1C1=CCC3[C@@]4(C)CC[C@H](OC(=O)CC(C)(C)C(=O)O)[C@@](C)(CO[Si](C)(C)C(C)(C)C)C4CC[C@@]3(C)[C@]1(C)CC2 ; method: substrate cleavage / fluorescence ; value: 35 µM
CSC[C@H](NC(=O)COc1cccc2ccccc12)C(=O)N[C@@H](Cc1ccccc1)[C@H](O)C(=O)N1CSC[C@H]1C(=O)NC(C)(C)C ; value: <0.05 µM
CC1CCC2C(C)(C)C(O)CCC2(C)C12Cc1c(cc(CO)c(C=O)c1O)O2 ; method: substrate cleavage / HPLC ; value: 115 µM
CC(C)(C)NC(=O)[C@@H]1C[C@@H](C2CCCCC2)CN1C(=O)[C@@H](O)[C@H](Cc1ccccc1)NC(=O)[C@H](CC(N)=O)NC(=O)OCc1ccccc1 ; value: >0.05 µM
CCOC(=O)[C@]12CCC(C)(C)CC1C1=CCC3[C@@]4(C)CC[C@H](O)[C@@](C)(CO)C4CC[C@@]3(C)[C@]1(C)CC2 ; method: substrate cleavage / fluorescence ; value: >100 µM
CC(C)[C@H](NC(=O)[C@@H](NC(=O)c1cc2ccccc2c(Cc2c(O)c(C(=O)N[C@H](C(=O)N[C@H](C(=O)O)C(C)C)C(C)C)cc3ccccc23)c1O)C(C)C)C(=O)O ; value: 2.8 µM
CC(=O)ONc1ccc(S(=O)(=O)N(Cc2ccccc2)C[C@@H](O)[C@H](Cc2ccccc2)NC(=O)CCc2c[nH]c3ccccc23)cc1 ; value: >0.1 µM
CC(C)[C@H](NC(=O)[C@@H]1CCCN1C(=O)[C@H](O)[C@H](Cc1ccccc1)NC(=O)OC(C)(C)C)C(=O)OC1CCCCC1 ; value: >1000 µM
C[C@H](NC(=O)OCc1ccccc1)C(=O)N[C@@H](Cc1ccccc1)[C@H](O)CNC[C@@H](O)[C@H](Cc1ccccc1)NC(=O)OC(C)(C)C ; method: HPLC ; conditions: pH 5.5 ; value: <10 µM
CC[C@H](C)[C@H](NC(=O)[C@@H](NC(=O)CCCCCCCCCCCCCCC(=O)N[C@@H](CC(N)=O)C(=O)N[C@@H](Cc1ccccc1)C(=O)O)C(C)O)C(=O)N[C@@H](Cc1ccccc1)C(N)=O ; value: 2.48 µM
CC(C)CN(C[C@@H](O)[C@H](Cc1ccccc1)NC(=O)CCCc1c[nH]c2ccccc12)S(=O)(=O)c1ccc(Br)cc1 ; value: >0.1 µM
Cc1ccccc1CNC(=O)[C@H]1N(C(=O)[C@@H](O)[C@H](Cc2ccccc2)NC(=O)C(C)C(C)C(=O)OC[C@@H]2O[C@H](n3cc(C)c(=O)[nH]c3=O)C[C@H]2N=[N+]=[N-])CSC1(C)C ; value: <5 µM
COC(=O)[C@]12CCC(C)(C)CC1C1=CCC3[C@@]4(C)CC[C@@H](NC(=O)CCCCC(=O)O)C(C)(C)C4CC[C@@]3(C)[C@]1(C)CC2 ; method: HPLC ; value: 3.5 µM
COc1cc(CN2C(=O)N(Cc3ccc(O)c(OC)c3)N(C(=O)CCc3cccnc3)C[C@@H](O)[C@H]2Cc2ccccc2)ccc1O ; method: fluorescence ; value: <0.0005 µM
C[C@@H]1CC[C@]2(C(=O)O)CC[C@]3(C)C(=CCC4[C@@]5(C)CC[C@H](OC(=O)CC(=O)O)C(C)(C)C5CC[C@]43C)C2[C@H]1C ; method: HPLC ; value: 6 µM
CC(C)C[C@H](NC(=O)[C@@H](NC(=O)CCCCCCCCCCCCCCC(=O)N[C@@H](CC(N)=O)C(=O)N[C@@H](Cc1ccccc1)C(=O)O)C(C)O)C(=O)N[C@H](C(N)=O)C1CCCCC1 ; mutations: PR-L10I K45R I54V L63P A71V V82T L90M I93L ; value: ~3.1 µM
CC(C)[C@@H](/C=C/C(=O)O)NC(=O)c1cc2ccccc2c(-c2c(O)c(C(=O)N[C@H](/C=C/C(=O)O)C(C)C)cc3ccccc23)c1O ; value: 46 µM
COC(=O)[C@]12CCC(C)(C)CC1C1=CCC3[C@@]4(C)CCC(=O)C(C)(C)C4CC[C@@]3(C)[C@]1(C)CC2 ; method: HPLC ; value: 20 µM
CC(C)(C)OC(=O)N[C@@H](Cc1ccccc1)[C@H](O)CNC[C@@H](O)[C@H](Cc1ccccc1)NC(=O)OC(C)(C)Cc1ccccc1 ; method: HPLC ; conditions: pH 5.5 ; value: <10 µM
COC(=O)[C@H](Cc1ccccc1)NC(=O)[C@H](CCC(=O)Nc1ccn([C@H]2CS[C@@H](CO[Si](c3ccccc3)(c3ccccc3)C(C)(C)C)O2)c(=O)n1)NC(=O)C[C@H](O)C(CC(C)C)NC(=O)[C@@H](NC(=O)[C@H](Cc1c[nH]c2ccccc12)NC(C)=O)C(C)C ; method: HPLC ; value: 0.06 µM
CC(=O)N(CC[C@@H](O)[C@H](Cc1ccc(-c2ccccc2)cc1)NC(=O)c1cccc(O)c1C)[C@@H](Cc1ccccc1)C(=O)NC(C)(C)C ; value: 0.029 µM
CC(C(=O)O)C(C)C(=O)N[C@@H](Cc1ccccc1)[C@H](O)C(=O)N1CSC(C)(C)[C@H]1C(=O)NC(C)(C)C ; value: <5 µM
CC(C)C[C@H](NC(=O)CCCCCCCCCCCCCCC(=O)N[C@@H](CC(N)=O)C(=O)N[C@@H](Cc1ccccc1)C(=O)O)C(=O)N[C@@H](CC(C)C)C(=O)N[C@@H](Cc1ccccc1)C(N)=O ; value: 0.87 µM
CCN(CC[C@@H](O)[C@H](Cc1ccccc1)NC(=O)c1cccc(O)c1C)S(=O)(=O)c1ccc(C)cc1 ; value: 1.6 µM
COC(=O)[C@H](Cc1ccccc1)NC(=O)[C@H](CCC(=O)OCC1CCCCC1)NC(=O)C[C@H](O)C(CC(C)C)NC(=O)[C@@H](NC(=O)[C@H](Cc1c[nH]c2ccccc12)NC(=O)CCCCC(=O)Nc1ccn([C@H]2CS[C@@H](CO)O2)c(=O)n1)C(C)C ; method: HPLC ; value: 0.01 µM
CC(=O)N(CC[C@@H](O)[C@H](Cc1ccccc1)NC(=O)c1cccc(O)c1C)[C@@H](Cc1ccc(OCc2ccccc2)cc1)C(=O)NC(C)(C)C ; value: 3.8 µM
CC(C)(C)OC(=O)N[C@@H](Cc1ccccc1)C(=O)N[C@@H](CO)C(=O)N[C@@H](Cc1ccccc1)[C@H](O)C(=O)NCC1CCCCC1 ; value: ~1000 µM
CC(=O)ONc1ccc(S(=O)(=O)N(Cc2ccccc2)C[C@@H](O)[C@H](Cc2ccccc2)NC(=O)CCN2C(=O)c3ccccc3C2=O)cc1 ; value: 0.056 µM
COc1cc(CN2C(=O)N(Cc3ccc(O)c(OC)c3)N(C(=O)CCc3ccc(F)cc3)C[C@@H](O)[C@H]2Cc2ccccc2)ccc1O ; method: fluorescence ; value: <0.0005 µM
CC1CCC2C(C)(C)C(O)CCC2(C)C12Cc1c(cc3c(c1O)CN(CCCCC(=O)O)C3=O)O2 ; method: substrate cleavage / HPLC ; value: 39 µM

Repeating the final 6 entries:

| smiles | mutations | method | conditions | value |
|---|---|---|---|---|
| COC(=O)[C@H](Cc1ccccc1)NC(=O)[C@H](CCC(=O)OCC1CCCCC1)NC(=O)C[C@H](O)C(CC(C)C)NC(=O)[C@@H](NC(=O)[C@H](Cc1c[nH]c2ccccc12)NC(=O)CCCCC(=O)Nc1ccn([C@H]2CS[C@@H](CO)O2)c(=O)n1)C(C)C |  | HPLC |  | 0.01 µM |
| CC(=O)N(CC[C@@H](O)[C@H](Cc1ccccc1)NC(=O)c1cccc(O)c1C)[C@@H](Cc1ccc(OCc2ccccc2)cc1)C(=O)NC(C)(C)C |  |  |  | 3.8 µM |
| CC(C)(C)OC(=O)N[C@@H](Cc1ccccc1)C(=O)N[C@@H](CO)C(=O)N[C@@H](Cc1ccccc1)[C@H](O)C(=O)NCC1CCCCC1 |  |  |  | ~1000 µM |
| CC(=O)ONc1ccc(S(=O)(=O)N(Cc2ccccc2)C[C@@H](O)[C@H](Cc2ccccc2)NC(=O)CCN2C(=O)c3ccccc3C2=O)cc1 |  |  |  | 0.056 µM |
| COc1cc(CN2C(=O)N(Cc3ccc(O)c(OC)c3)N(C(=O)CCc3ccc(F)cc3)C[C@@H](O)[C@H]2Cc2ccccc2)ccc1O |  | fluorescence |  | <0.0005 µM |
| CC1CCC2C(C)(C)C(O)CCC2(C)C12Cc1c(cc3c(c1O)CN(CCCCC(=O)O)C3=O)O2 |  | substrate cleavage / HPLC |  | 39 µM |